This assay concerns the target HLA-A*0201 (alpha-chain refolded with beta2m). Kind of assay: circular dichroism thermal melting.

As to ELA peptide (…), Melan-A 26-35 (A27L), the Tm (melting temperature of the peptide-HLA complex) worked out at 63 °C.

For the origin of these results see publication PMC5887915.
